Reference: paper PMC5385501

Each sequence was assayed against NikR (UniProt A1YSQ9) (assay: DNase I footprinting). Settings: 150 uM NiSO4, protection from 9.7 nM tetramer; 20 mM Hepes pH 7.85, 50 mM KCl, 0.02% Igepal, 0.1 mM DTT, 10% glycerol, +/-150 uM NiSO4, ~20 fmol probe in 50 ul, 300 ng salmon sperm DNA, room temperature 15 min; recombinant protein; label: 5'-32P (one end); probe letters rebuilt from the primers and the genome; part of a longer molecule.

Question: Does “CAAAACAAAATTAAGGCATAATCACTCTTTTTAAAATAAAGGTCGCGTAGCTCAGTTGGTAGAGCACTACCTTGACATGGTAGTGGCCGCTGGTTCAAGTCCAGTCGTGGCCACCATTATCACTCCAATTTTAATTCTCATTTTTTTTGCGAGTTTTTGATCTTTATAAATTCTAAAGGGGTATTAAACGCGCTTCTAATAACGCTTTTATAGCGCTTCAAAAATATAACACTAATTCATTTTAAATAATAATTAGTTAATGAACGCTTCTGTTAATCTTAGTAAATCAAAACATTGCTACAATTACATCCAACCTTGATTTCGTTATGTCTTCAAGGAAAAACAC (double strand) [PureA probe (ureA / nrr2 HPnc0260 divergent promoter)]” bind?
Answer: Result: binds

Question: Does “CACGTGCCCCTCAAATTAACATTGAAAACGGGTATTTTAAGTTTTTTAAGAAGCCTTAAGGAGCTTTGAAAAGAATTGCTGTTTTAAAACTTTATTGAGCGTATTTTTAAATAACGATTTACCTTAATCTTGTAATTTGTGAATAAACAAAACATTTACTTATCTTTTTTGTGATATTTGGCTGATTTGTAACAATGCTTTTAATAGGGTTGTGGTATAAATATTCTTATCAAGGTGTGCCAAACATGCCTTGAATCTCCATTTTATGAAAGGATTTGTTATGAGTGGATTGAAAAACATTTAGTTGTGTAGTGGTTTTATGCGGTG (double strand) [PdvnA probe]” bind?
Answer: Result: binds

Question: Does “GGCTTACCCCTAAAGATTTAATTCAAAACAAAGAGTGGGATAAGATCACAGAAATTTGCAAGCGGGCGTTAGCTTAAGATAACAAAGAGATCATGGCATTTTGTATTTGCTTAATAACACTATAATAAAATTTTTAATAAGGAGATACATCATGTTAGAAAATGTCAAAAAATCCCTTTTTAGGGTTTTGTGCTTGGGTGCGTTGTGTTTAGGGGGGTTAATGGCAGAGCAAGACCCTAA (double strand) [PhcpC probe]” bind?
Answer: Result: binds

Construct, isoform or probe ends are uncertain for at least one entry.
